Amino acid sequences for entries named in this document (tags omitted). Residues count along the entry.
UniProt O69002, 1-198: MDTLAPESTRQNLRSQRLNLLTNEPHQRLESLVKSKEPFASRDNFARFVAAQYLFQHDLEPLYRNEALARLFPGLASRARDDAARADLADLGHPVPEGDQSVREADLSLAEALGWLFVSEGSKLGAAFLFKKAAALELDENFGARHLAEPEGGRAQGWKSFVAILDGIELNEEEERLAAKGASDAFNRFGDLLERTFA

In BindingDB's records for 17629261:

Target: Iron-starvation protein PigA (Pseudomonas aeruginosa, UniProt O69002)
Assay: Binding affinity to Pseudomonas aeruginosa heme oxygenase

Work on `NCc1ccc([N+](=O)[O-])cc1[N+](=O)[O-]` yielded a Kd of 187 µM.
